Assay results from publication PMC12846677 (Viruses, 2025).

What was measured:
pNL4-3G140S/Q148H [1] = assay: microbe, parasite or virus in culture; details: Human immunodeficiency virus 1, C8166
HIV-1RF/V82F/184V [2] = details: C8166, p24
pNL4-3G140S/Q148H [3] = system: pNL4-3G140S/Q148H
HIV-1RF/V82F/184V [4] = assay: microbe, parasite or virus in culture; details: Human immunodeficiency virus 1, C8166
NL4-3IN-R263K = type: cell-based; details: p24

Which results are given for `C[C@H]1N2C(=O)c3c(O)c(=O)c(C(=O)NCc4ccc(F)cc4F)cn3C[C@@H]2OCC12CC2` [ACC017]?
EC50 (pNL4-3G140S/Q148H [1]): 8.19 ± 4.88 nM; SI (CC50/EC50) (HIV-1RF/V82F/184V [2]): 14,048.28; Fold decrease in susceptibility of pNL4-3G140S/Q148H compared to HIV-1IIIB (pNL4-3G140S/Q148H [3]): 13.88 fold; SI (CC50/EC50) (pNL4-3G140S/Q148H [3]; pNL4-3G140S/Q148H, C8166, p24): 2487.18; EC50 (HIV-1RF/V82F/184V [4]): 1.45 ± 0.48 nM

For `C[C@@H]1CCO[C@H]2Cn3cc(C(=O)NCc4ccc(F)cc4F)c(=O)c(O)c3C(=O)N12` [DTG, Dolutegravir], which EC50 (pNL4-3G140S/Q148H [1]) is on record?
Its EC50 is 13.5 ± 8.41 nM.

And the EC50 (HIV-1RF/V82F/184V [4])?
The EC50 was 1.69 ± 1.22 nM.

`O=C1Nc2ccc(Cl)cc2[C@@](C#CC2CC2)(C(F)(F)F)O1` [EFV, Efavirenz] was tested. Which “FC (Fold Change) EC50 (NL4-3IN-R263K)/EC50 (NL4-3)” value (NL4-3IN-R263K) did it give?
The value was 1.07.

How did the “FC (Fold Change) EC50 (NL4-3IN-R263K)/EC50 (NL4-3)” value (NL4-3IN-R263K) turn out when `Nc1ccn([C@@H]2CS[C@H](CO)O2)c(=O)n1` [3TC, Lamivudine] was run?
Its value is 0.91.
